In PubChem BioAssay AID602399 (Sanford-Burnham Center for Chemical Genomics, 2012):
This is a selection; strong and weak results do not stand in their true shares. Activity calls are given as the source filed them. Rule as the data show it: active = inhibition above about 26%; inactive = the rest.

tested on: Nicotinate-nucleotide adenylyltransferase NadD (Staphylococcus aureus N315); assay: inhibitors of S. aureus NadD, primary screen, biochemical, colorimetric, uHTS (AID 602399); details: purified NadD enzyme, colorimetric absorbance read-out; at 20 µM; hits give high values

Row | Compound | inhibition
1 | CP(=O)(Nc1cccc(Br)c1)Oc1ccccc1 (centres undefined) | inactive: -8.08%
2 | Cc1cc(C)cc(OP(C)(=O)Nc2ccccn2)c1 (centres undefined) | inactive: -6.38%
3 | Cc1ccc(C)c(NP(C)(=O)Oc2ccccc2)c1 (centres undefined) | inactive: -1.87%
4 | COc1ccccc1OP(C)(=O)Nc1cccc(Br)c1 (centres undefined) | inactive: -2.66%
5 | Cc1cc(C)cc(OP(C)(=O)Nc2ccc(C)cc2C)c1 (centres undefined) | inactive: -5.54%
6 | CCOC(=O)c1ccc(NP(C)(=O)Oc2cc(C)cc(C)c2)cc1 (centres undefined) | inactive: -0.69%
7 | CC1=NCCc2c1[nH]c1ccccc21.O=[N+]([O-])c1cc([N+](=O)[O-])c(O)c([N+](=O)[O-])c1 | inactive: -0.4%
8 | O=C(O)c1cccc(Nc2c([N+](=O)[O-])cc([N+](=O)[O-])cc2[N+](=O)[O-])c1 | inactive: 1.41%
9 | COc1ccccc1OP(C)(=O)Nc1c(C)cccc1C (centres undefined) | inactive: -5.74%
10 | CN1CCCCC1COC(=O)C1(O)c2ccccc2CCc2ccccc21 (centres undefined) | inactive: -4.03%
11 | CP(=O)(Nc1ccc(SC(F)(F)F)cc1)Oc1ccccc1 (centres undefined) | inactive: -2.85%
12 | CCCOc1ccc(NP(C)(=O)Oc2ccc(Cl)cc2)cc1 (centres undefined) | inactive: -3.23%
13 | COc1ccc(-c2ccccn2)cc1.O=[N+]([O-])c1cc([N+](=O)[O-])c(O)c([N+](=O)[O-])c1 | inactive: 17.5%
14 | O=[N+]([O-])c1cc([N+](=O)[O-])c(Nc2nnnn2CCO)c([N+](=O)[O-])c1 | inactive: -4.86%
15 | CC1=C2N=C(C=C3N=C(C(C)=C4[N-][C@@](C)([C@@H]5N=C1[C@](C)(CCC(=O)NC[C@@H](C)OP(=O)([O-])O[C@H]1[C@@H](O)[C@@H](n6cnc7cc(C)c(C)cc76)O[C@@H]1CO)[C@H]5CC(N)=O)[C@@](C)(CC(N)=O)[C@@H]4CCC(N)=O)[C@@](C)(CC(N)=O)[C@@H]3CCC(N)=O)C(C)(C)[C@@H]2CCC(N)=O.[C-]#N.[Co+3] | inactive: -0.141%
16 | CCOC(=O)C(CC)C1=NC(C)(C)Cc2ccccc21.O=[N+]([O-])c1cc([N+](=O)[O-])c(O)c([N+](=O)[O-])c1 (centres undefined) | inactive: -2.7%
17 | O=[N+]([O-])c1cc([N+](=O)[O-])c(-c2cnn(-c3ccccc3)c2)c([N+](=O)[O-])c1 | inactive: -9.29%
18 | Cc1nc2ccc3ccccc3c2s1.O=[N+]([O-])c1cc([N+](=O)[O-])c(O)c([N+](=O)[O-])c1 | inactive: -7.38%
19 | O=[N+]([O-])c1cc([N+](=O)[O-])c(-n2nnc3ccccc32)c([N+](=O)[O-])c1 | inactive: 4.14%
20 | CN(Cc1cccnc1)C(=O)COc1ccc(Cl)c(Cl)c1.O=[N+]([O-])c1cc([N+](=O)[O-])c(O)c([N+](=O)[O-])c1 | inactive: 1.06%
21 | CCOP(C)(=S)SCC(=O)NC(C)C(=O)O (centres undefined) | inactive: -5.56%
22 | CCOC(=O)c1ccc(NP(C)(=O)Oc2ccc(OC)cc2)cc1 (centres undefined) | inactive: -2.93%
23 | O=[N+]([O-])c1cc([N+](=O)[O-])c(O)c([N+](=O)[O-])c1.c1ccc(Oc2ccncc2)cc1 | inactive: 2.03%
24 | CP(=O)(Nc1ccccn1)Oc1ccc(Cl)cc1 (centres undefined) | inactive: -4.2%
25 | Cc1ccc(Nc2c([N+](=O)[O-])cc([N+](=O)[O-])cc2[N+](=O)[O-])cc1 | inactive: -9.42%
26 | Cc1cccc(C)c1OP(C)(=O)Nc1ccc(SC(F)(F)F)cc1 (centres undefined) | inactive: -2.4%
27 | CP(=O)(Nc1ccc(SC(F)(F)F)cc1)Oc1ccc(Cl)cc1 (centres undefined) | inactive: -5.88%

Row | Compound | inhibition
28 | CP(=O)(Oc1ccccc1)OC(c1ccccc1)C(F)(F)F (centres undefined) | inactive: -3.99%
29 | CCc1ccc(OP(C)(=O)N2CCN(c3ccc([N+](=O)[O-])cc3)CC2)cc1 (centres undefined) | inactive: -10.5%
30 | CP(=O)(NC(=O)Nc1ccccc1)Oc1ccccc1 (centres undefined) | inactive: -1.51%
31 | Cc1cc(C)cc(OP(C)(=O)Nc2ccc(SC(F)(F)F)cc2)c1 (centres undefined) | inactive: -3.64%
32 | CP(=S)(Nn1cnnc1)Oc1ccccc1 (centres undefined) | inactive: 1.04%
33 | COc1ccccc1OP(C)(=O)Nc1ccccc1 (centres undefined) | inactive: 8.75%
34 | CP(=O)(Nc1ccccc1Br)Oc1ccccc1 (centres undefined) | inactive: -3.31%
35 | CCOC(=O)c1ccc(NP(C)(=O)Oc2ccccc2)cc1 (centres undefined) | inactive: -5.15%
36 | COc1ccccc1OP(C)(=O)Nc1ccc(C)cc1 (centres undefined) | inactive: 2.35%
37 | Cc1ccc(NP(C)(=O)Oc2ccccc2)c(C)c1 (centres undefined) | inactive: -0.792%
38 | COc1ccccc1OP(C)(=O)Nc1cc(Cl)ccc1C (centres undefined) | inactive: 0%
39 | COc1ccc(OP(C)(=O)Nc2cccc(F)c2)cc1 (centres undefined) | inactive: -1.52%
40 | Cc1cc(C)cc(OP(C)(N)=O)c1 (centres undefined) | inactive: -2.93%
41 | O=[N+]([O-])c1cc([N+](=O)[O-])c(Nc2cccnc2)c([N+](=O)[O-])c1 | inactive: 1.73%
42 | CC(C)(C)c1ccc(OP(C)(=O)Nc2ccc(SC(F)(F)F)cc2)cc1 (centres undefined) | inactive: -3.62%
43 | Cc1cccc(C)c1OP(C)(N)=O (centres undefined) | inactive: 2.24%
44 | O=[N+]([O-])c1ccc2c(c1)C=Nc1ccccc1O2 | inactive: 3.63%
45 | COc1ccccc1-c1ccccn1.O=[N+]([O-])c1cc([N+](=O)[O-])c(O)c([N+](=O)[O-])c1 | inactive: 10.6%
46 | CCN(CC)CCCOC(=O)C(O)(c1ccccc1)c1ccccc1 | inactive: -6.78%
47 | O=[N+]([O-])c1cc([N+](=O)[O-])c(Nc2ccccn2)c([N+](=O)[O-])c1 | inactive: 1.75%
48 | Cc1c(NP(C)(=O)Oc2ccc(C(C)C)cc2)c(=O)n(-c2ccccc2)n1C (centres undefined) | inactive: -3.13%
49 | CCc1ccc(OP(C)(=O)O)cc1 | inactive: 1.06%
50 | CP(=O)(Nc1ccccn1)Oc1ccccc1 (centres undefined) | inactive: 2.28%
51 | COc1ccccc1OP(C)(=O)Nc1ccc(C)cc1C (centres undefined) | inactive: 5.63%
52 | COc1ccccc1OP(C)(=O)Nc1ccc(Br)cc1 (centres undefined) | inactive: -6.37%
53 | CN(C)CCOC(=O)C(O)(c1ccccc1)C1CCCC1 (centres undefined) | inactive: -2.47%
54 | COc1ccc(OP(C)(=O)Nc2ccccn2)cc1 (centres undefined) | inactive: -1.16%
